# According to US20220408731A1, “MODIFIED ANTIMICROBIAL PEPTIDES” (priority 2021, published 2022):
# System: Botrytis cinerea
# Experiment: Antifungal MIC assay in SFM, without or with added salts
# Conditions: low cationic conditions, V1A, V3A, V4A, V5A: B. cinerea, F. graminearum, F. oxysporum, P. capsici, V2A: B. cinerea, V6A: B. cinerea
smiles,measurement,value
CC[C@H](C)[C@@H]1NC(=O)[C@H](CCCNC(=N)N)NC(=O)[C@H]([C@@H](C)O)NC(=O)[C@H](C(C)C)NC(=O)[C@H](Cc2ccccc2)NC(=O)[C@H](C(C)C)NC(=O)[C@H](CCCNC(=N)N)NC(=O)[C@H](CCCNC(=N)N)NC(=O)[C@H](CCCNC(=N)N)NC(=O)[C@H](Cc2ccccc2)NC(=O)CNC(=O)[C@H](CCCNC(=N)N)NC(=O)[C@@H](NC(=O)[C@H](CCCNC(=N)N)NC(=O)CNC(=O)CN)CSSC[C@@H](C(N)=O)NC1=O [GMA4C_V3A],Antifungal activity in vitro relative to the wild-type GMA4C_AC control,equivalent to the wild-type GMA4C_AC control
